Some results are limits rather than exact numbers.

One test deals with hNav1.1 (human), P35498. Nature of the test: cell-based or functional assay.
As for DCRYMFGKCEKDEDCCKHLGCKRKMKYCAWDFTFT (modifications not checked) [[D8K]Pnc1a], the IC50, membrane potential assay was 241 nM and the Selectivity for Nav1.7, membrane potential assay was found to be 19 fold.
DCRAMFGDCEKDEDCCKHLGCKRKMKYCAWDFTFT (modifications not checked) [[Y4A]Pnc1a] registered an IC50, membrane potential assay of 17000 nM and a Selectivity for Nav1.7, membrane potential assay of 19 fold.
Take DCRYMFGDCEKDEDCCKHLGCKRKMKYCAADFTFT (modifications not checked) [[W30A]Pnc1a]: the IC50, membrane potential assay is 15000 nM and the Selectivity for Nav1.7, membrane potential assay worked out at 2 fold.
As to DCRYMFGNCEKDEDCCKHLGCKRKMKYCAWDFTFT (modifications not checked) [[D8N]Pnc1a], the IC50, membrane potential assay stood at 349 nM and the Selectivity for Nav1.7, membrane potential assay stood at 14 fold.
DCRYMFGDCKKDEDCCKHLGCKRKMKYCAWDFTFT (modifications not checked) [[E10K]Pnc1a]: the IC50, membrane potential assay turned out to be 384 nM and the Selectivity for Nav1.7, membrane potential assay worked out at 9 fold.
As to KCRYMFGDCEKDEDCCKHLGCKRKMKYCAWDFTFT (modifications not checked) [[D1K]Pnc1a], the IC50, membrane potential assay amounted to 754 nM and the Selectivity for Nav1.7, membrane potential assay is 24 fold.
Take DCRYMFGDCEKDEDCCKHLGCKRRMKYCAWDFTFT (modifications not checked) [[K24R]Pnc1a]: the IC50, membrane potential assay came out at 856 nM and the Selectivity for Nav1.7, membrane potential assay was 27 fold.

The target in another test is hNav1.2 (human), Q99250. As to the kind of experiment: cell-based or functional assay.
As to DCRYMFGKCEKDEDCCKHLGCKRKMKYCAWDFTFT (modifications not checked) [[D8K]Pnc1a], the IC50, membrane potential assay was found to be 40 nM and the Selectivity for Nav1.7, membrane potential assay was 3 fold.
For the molecule DCRAMFGDCEKDEDCCKHLGCKRKMKYCAWDFTFT (modifications not checked) [[Y4A]Pnc1a], the IC50, membrane potential assay was 8000 nM and the Selectivity for Nav1.7, membrane potential assay is 8 fold.
Molecule DCRYMFGDCEKDEDCCKHLGCKRKMKYCAADFTFT (modifications not checked) [[W30A]Pnc1a] displayed an IC50, membrane potential assay of 24000 nM and a Selectivity for Nav1.7, membrane potential assay of 3 fold.
In turn, DCRYMFGNCEKDEDCCKHLGCKRKMKYCAWDFTFT (modifications not checked) [[D8N]Pnc1a] showed an IC50, membrane potential assay of 147 nM and a Selectivity for Nav1.7, membrane potential assay of 6 fold.
Turning to DCRYMFGDCKKDEDCCKHLGCKRKMKYCAWDFTFT (modifications not checked) [[E10K]Pnc1a], the IC50, membrane potential assay was found to be 172 nM and the Selectivity for Nav1.7, membrane potential assay came to 4 fold.
Regarding KCRYMFGDCEKDEDCCKHLGCKRKMKYCAWDFTFT (modifications not checked) [[D1K]Pnc1a], the IC50, membrane potential assay was 261 nM and the Selectivity for Nav1.7, membrane potential assay was 8 fold.
With DCRYMFGDCEKDEDCCKHLGCKRRMKYCAWDFTFT (modifications not checked) [[K24R]Pnc1a], the IC50, membrane potential assay came to 414 nM and the Selectivity for Nav1.7, membrane potential assay is 13 fold.

Another test has as its target hNav1.3 (human), Q9NY46. Nature of the test: cell-based or functional assay.
DCRYMFGKCEKDEDCCKHLGCKRKMKYCAWDFTFT (modifications not checked) [[D8K]Pnc1a] had an IC50, membrane potential assay of 2000 nM and a Selectivity for Nav1.7, membrane potential assay of 159 fold.
Consider DCRAMFGDCEKDEDCCKHLGCKRKMKYCAWDFTFT (modifications not checked) [[Y4A]Pnc1a], for which the IC50, membrane potential assay was determined as 20000 nM and the Selectivity for Nav1.7, membrane potential assay is 22 fold.
Molecule DCRYMFGDCEKDEDCCKHLGCKRKMKYCAADFTFT (modifications not checked) [[W30A]Pnc1a] came in with an IC50, membrane potential assay of 11000 nM and a Selectivity for Nav1.7, membrane potential assay of 2 fold.
In the same order, the values of DCRYMFGNCEKDEDCCKHLGCKRKMKYCAWDFTFT (modifications not checked) [[D8N]Pnc1a] are 3000 nM and 118 fold.
The matching figures for DCRYMFGDCKKDEDCCKHLGCKRKMKYCAWDFTFT (modifications not checked) [[E10K]Pnc1a]: 5000 nM and 128 fold.
The matching figures for KCRYMFGDCEKDEDCCKHLGCKRKMKYCAWDFTFT (modifications not checked) [[D1K]Pnc1a]: 4000 nM and 134 fold.
The molecule DCRYMFGDCEKDEDCCKHLGCKRRMKYCAWDFTFT (modifications not checked) [[K24R]Pnc1a] gave an IC50, membrane potential assay of 8000 nM and a Selectivity for Nav1.7, membrane potential assay of 260 fold.

Another test has as its target hNav1.4 (human), P35499. As to the kind of experiment: cell-based or functional assay.
Take DCRYMFGKCEKDEDCCKHLGCKRKMKYCAWDFTFT (modifications not checked) [[D8K]Pnc1a]: the IC50, membrane potential assay stood at 663 nM and the Selectivity for Nav1.7, membrane potential assay came out at 52 fold.
DCRAMFGDCEKDEDCCKHLGCKRKMKYCAWDFTFT (modifications not checked) [[Y4A]Pnc1a]: the IC50, membrane potential assay was found to be 12000 nM and the Selectivity for Nav1.7, membrane potential assay came out at 12 fold.
With DCRYMFGDCEKDEDCCKHLGCKRKMKYCAADFTFT (modifications not checked) [[W30A]Pnc1a], the IC50, membrane potential assay worked out at 12000 nM and the Selectivity for Nav1.7, membrane potential assay is 2 fold.
In the case of DCRYMFGNCEKDEDCCKHLGCKRKMKYCAWDFTFT (modifications not checked) [[D8N]Pnc1a], the IC50, membrane potential assay worked out at 852 nM and the Selectivity for Nav1.7, membrane potential assay is 35 fold.
The molecule DCRYMFGDCKKDEDCCKHLGCKRKMKYCAWDFTFT (modifications not checked) [[E10K]Pnc1a] displayed an IC50, membrane potential assay of 2000 nM and a Selectivity for Nav1.7, membrane potential assay of 49 fold.
Molecule KCRYMFGDCEKDEDCCKHLGCKRKMKYCAWDFTFT (modifications not checked) [[D1K]Pnc1a] returned an IC50, membrane potential assay of 3000 nM and a Selectivity for Nav1.7, membrane potential assay of 86 fold.
Regarding DCRYMFGDCEKDEDCCKHLGCKRRMKYCAWDFTFT (modifications not checked) [[K24R]Pnc1a], the IC50, membrane potential assay amounted to 3000 nM and the Selectivity for Nav1.7, membrane potential assay amounted to 102 fold.

For a further test, the target named is hNav1.5 (human), Q14524. Nature of the test: cell-based or functional assay.
DCRYMFGKCEKDEDCCKHLGCKRKMKYCAWDFTFT (modifications not checked) [[D8K]Pnc1a] had an IC50, membrane potential assay of over 30000 nM and a Selectivity for Nav1.7, membrane potential assay of over 2000 fold.
DCRAMFGDCEKDEDCCKHLGCKRKMKYCAWDFTFT (modifications not checked) [[Y4A]Pnc1a] gave an IC50, membrane potential assay of 18000 nM and a Selectivity for Nav1.7, membrane potential assay of 20 fold.
Regarding DCRYMFGDCEKDEDCCKHLGCKRKMKYCAADFTFT (modifications not checked) [[W30A]Pnc1a], the IC50, membrane potential assay is 6000 nM and the Selectivity for Nav1.7, membrane potential assay stood at 0.9 fold.
DCRYMFGNCEKDEDCCKHLGCKRKMKYCAWDFTFT (modifications not checked) [[D8N]Pnc1a]: the IC50, membrane potential assay was over 30000 nM and the Selectivity for Nav1.7, membrane potential assay is over 1000 fold.
The matching figures for DCRYMFGDCKKDEDCCKHLGCKRKMKYCAWDFTFT (modifications not checked) [[E10K]Pnc1a]: 13000 nM and 326 fold.
In the same order, the values of KCRYMFGDCEKDEDCCKHLGCKRKMKYCAWDFTFT (modifications not checked) [[D1K]Pnc1a] are over 30000 nM and over 900 fold.
In the same order, the values of DCRYMFGDCEKDEDCCKHLGCKRRMKYCAWDFTFT (modifications not checked) [[K24R]Pnc1a] are over 30000 nM and over 900 fold.

For the next test, the target named is hNav1.6 (human), Q9UQD0. As to the kind of experiment: cell-based or functional assay.
DCRYMFGKCEKDEDCCKHLGCKRKMKYCAWDFTFT (modifications not checked) [[D8K]Pnc1a] gave an IC50, membrane potential assay of over 30000 nM and a Selectivity for Nav1.7, membrane potential assay of over 2000 fold.
DCRAMFGDCEKDEDCCKHLGCKRKMKYCAWDFTFT (modifications not checked) [[Y4A]Pnc1a]: the IC50, membrane potential assay was over 30000 nM and the Selectivity for Nav1.7, membrane potential assay was over 30 fold.
Turning to DCRYMFGDCEKDEDCCKHLGCKRKMKYCAADFTFT (modifications not checked) [[W30A]Pnc1a], the IC50, membrane potential assay was over 30000 nM.
Regarding DCRYMFGNCEKDEDCCKHLGCKRKMKYCAWDFTFT (modifications not checked) [[D8N]Pnc1a], the IC50, membrane potential assay is over 30000 nM and the Selectivity for Nav1.7, membrane potential assay was over 1000 fold.
In the same order, the values of DCRYMFGDCKKDEDCCKHLGCKRKMKYCAWDFTFT (modifications not checked) [[E10K]Pnc1a] are 820 nM and 20 fold.
The matching figures for KCRYMFGDCEKDEDCCKHLGCKRKMKYCAWDFTFT (modifications not checked) [[D1K]Pnc1a]: over 30000 nM and over 900 fold.
Regarding DCRYMFGDCEKDEDCCKHLGCKRRMKYCAWDFTFT (modifications not checked) [[K24R]Pnc1a], the IC50, membrane potential assay was over 30000 nM and the Selectivity for Nav1.7, membrane potential assay was over 900 fold.

For a further test, the target named is hNav1.7 (human), Q15858. Nature of the test: cell-based or functional assay.
For DCRYMFGKCEKDEDCCKHLGCKRKMKYCAWDFTFT (modifications not checked) [[D8K]Pnc1a], the IC50, membrane potential assay is 13 nM and the Selectivity for Nav1.7, membrane potential assay came out at 1 fold.
Molecule DCRAMFGDCEKDEDCCKHLGCKRKMKYCAWDFTFT (modifications not checked) [[Y4A]Pnc1a] yielded an IC50, membrane potential assay of 934 nM and a Selectivity for Nav1.7, membrane potential assay of 1 fold.
For the molecule DCRYMFGDCEKDEDCCKHLGCKRKMKYCAADFTFT (modifications not checked) [[W30A]Pnc1a], the IC50, membrane potential assay worked out at 7000 nM and the Selectivity for Nav1.7, membrane potential assay turned out to be 1 fold.
With DCRYMFGNCEKDEDCCKHLGCKRKMKYCAWDFTFT (modifications not checked) [[D8N]Pnc1a], the IC50, membrane potential assay was determined as 24 nM and the Selectivity for Nav1.7, membrane potential assay was 1 fold.
DCRYMFGDCKKDEDCCKHLGCKRKMKYCAWDFTFT (modifications not checked) [[E10K]Pnc1a] showed an IC50, membrane potential assay of 41 nM and a Selectivity for Nav1.7, membrane potential assay of 1 fold.
The molecule KCRYMFGDCEKDEDCCKHLGCKRKMKYCAWDFTFT (modifications not checked) [[D1K]Pnc1a] displayed an IC50, membrane potential assay of 31 nM and a Selectivity for Nav1.7, membrane potential assay of 1 fold.
Molecule DCRYMFGDCEKDEDCCKHLGCKRRMKYCAWDFTFT (modifications not checked) [[K24R]Pnc1a] displayed an IC50, membrane potential assay of 31 nM and a Selectivity for Nav1.7, membrane potential assay of 1 fold.

The target in the next test is hNav1.8 (human), Q9Y5Y9. Nature of the test: cell-based or functional assay.
As to DCRYMFGKCEKDEDCCKHLGCKRKMKYCAWDFTFT (modifications not checked) [[D8K]Pnc1a], the IC50, membrane potential assay is over 30000 nM and the Selectivity for Nav1.7, membrane potential assay is over 2000 fold.
With DCRAMFGDCEKDEDCCKHLGCKRKMKYCAWDFTFT (modifications not checked) [[Y4A]Pnc1a], the IC50, membrane potential assay is over 30000 nM and the Selectivity for Nav1.7, membrane potential assay was over 30 fold.
DCRYMFGDCEKDEDCCKHLGCKRKMKYCAADFTFT (modifications not checked) [[W30A]Pnc1a] displayed an IC50, membrane potential assay of over 30000 nM and a Selectivity for Nav1.7, membrane potential assay of 4 fold.
The matching figures for DCRYMFGNCEKDEDCCKHLGCKRKMKYCAWDFTFT (modifications not checked) [[D8N]Pnc1a]: over 30000 nM and over 1000 fold.
As for DCRYMFGDCKKDEDCCKHLGCKRKMKYCAWDFTFT (modifications not checked) [[E10K]Pnc1a], the IC50, membrane potential assay is over 30000 nM and the Selectivity for Nav1.7, membrane potential assay is over 700 fold.
In turn, KCRYMFGDCEKDEDCCKHLGCKRKMKYCAWDFTFT (modifications not checked) [[D1K]Pnc1a] had an IC50, membrane potential assay of over 30000 nM and a Selectivity for Nav1.7, membrane potential assay of over 900 fold.
DCRYMFGDCEKDEDCCKHLGCKRRMKYCAWDFTFT (modifications not checked) [[K24R]Pnc1a] yielded an IC50, membrane potential assay of over 30000 nM and a Selectivity for Nav1.7, membrane potential assay of over 900 fold.

For the origin of these results see patent publication US20190359662A1.
